Measured values from several laboratories, pooled; numbers as filed in NIAID ChemDB.

Common to all: growth or infection tests; species: Candida albicans; read-out: MIC

Blank or dashed fields: not listed here.

| compound | strain or isolate | method | setting | value |
|---|---|---|---|---|
| CCCCCOc1ccc(-c2ccc(-c3ccc(C(=O)N[C@H]4CCCNC(=O)[C@@H]5C[C@H](N)CN5C(=O)[C@H]([C@@H](C)O)NC(=O)[C@H](CCc5ccc(O)cc5)NC(=O)[C@@H]5C[C@@H](O)CN5C(=O)[C@H]([C@@H](C)O)NC4=O)cc3)cc2)cc1 | ATCC 62376 | - | - | 0.2 µg/mL |
| CCCCCNC(=O)C1C(O)CC2(O)CC(O)CC(O)CC(O)CC(O)CC(=O)CC(O)CC(=O)OC(C(C)CCC(O)CC(=O)c3ccc(NC)cc3)C(C)/C=C/C=C/C=C\C=C/C=C/C=C/C=C/C(O[C@@H]3O[C@H](C)[C@@H](O)[C@H](N)[C@@H]3O)CC1O2 | 200 | - | - | 0.12 µg/mL |
| CO[C@H]1C[C@@H]2CC[C@@H](C)[C@@](O)(O2)C(=O)C(=O)N2CCCC[C@H]2C(=O)O[C@H]([C@H](C)C[C@@H]2CC[C@@H](C(=O)ON(C)C)[C@H](OC)C2)CC(=O)[C@H](C)/C=C(\C)[C@@H](O)[C@@H](OC)C(=O)[C@H](C)C[C@H](C)CCCC/C=C/1C | 10231 | - | - | 50 µg/mL |
| O=[n+]1c(Sc2ccccc2)c(CBr)n([O-])c2ccccc21 | Clinical isolate 14 | - | - | 15.6 µg/mL |
| CN[C@@H]1[C@H](O[C@@H]2O[C@H](CO)[C@@H](O)[C@H](S(=O)(=O)O)[C@H]2O)[C@@H](O)[C@H](O[C@H]2c3cc(C)c(C(=O)N[C@H](C)C(=O)O)c(O)c3-c3c(cc4c(c3O)C(=O)c3cc(OC)cc(O)c3C4=O)[C@@H]2O)O[C@@H]1C | A9540 | - | - | 25 µg/mL |
| CCCCCC(O)CC(=O)CCc1ccc(O)c(OC)c1 | CN1A | - | - | 750 µg/mL |
| O/N=C(\c1ccc(Cl)cc1)c1oc2ccc(Cl)cc2c1Cn1cncn1 | NRRL Y-27077 | - | - | 12.5 µg/mL |
| C[C@H]1[C@H](O)[C@@H](C)/C=C/C=C/C=C/C=C/C=C/C=C/C=C/[C@H](O[C@@H]2O[C@H](C)[C@@H](O)[C@H](N)[C@@H]2O)C[C@@H]2O[C@](O)(C[C@@H](O)C[C@@H](O)CC[C@H](O)[C@@H](O)C[C@@H](O)CC(=O)O[C@H]1C)C[C@H](O)[C@H]2C(=O)O | AD | - | - | 0.25 µg/mL |
| Nn1c(SCC(O)(Cn2cncn2)c2ccc(F)cc2F)nnc1-c1ccc(O)cc1 | IRFC 36 | broth dilution | - | >64 µg/mL |
| C[C@@H](n1cnc2cc(OCCF)ccc2c1=O)[C@](O)(Cn1cncn1)c1ccc(F)cc1F | 406 strains | - | - | 0.07 µg/mL |
| CC(C)(O)c1cn(-c2ccc(Cl)cc2)nn1 | URM 4820 | broth dilution | - | 256 µg/mL |
| C[C@@H](O)[C@@H]1NC(=O)[C@H](CCc2ccc(O)cc2)NC(=O)[C@@H]2C[C@@H](O)CN2C(=O)[C@H]([C@@H](C)O)NC(=O)[C@@H](NC(=O)c2ccc(N3CCN(c4ccc(O)cc4)CC3)cc2)CCCNC(=O)[C@@H]2C[C@H](N)CN2C1=O | ATCC 38247 | - | - | 50 µg/mL |
| Cc1ccc(-c2nnc(SCC(O)(Cn3cncn3)c3ccc(F)cc3F)n2N)cc1 | IRFC 37 | broth dilution | - | >64 µg/mL |
| O/N=C(\c1ccccc1)c1oc2ccccc2c1Cn1cncn1 | NRRL Y-27077 | - | - | 12.5 µg/mL |
| CCCCCOc1ccc(-c2ccc(-c3ccc(C(=O)N[C@H]4CCCNC(=O)[C@@H]5C[C@H](N)CN5C(=O)[C@H]([C@@H](C)O)NC(=O)[C@H](COCc5ccccc5)NC(=O)[C@@H]5C[C@@H](O)CN5C(=O)[C@H]([C@@H](C)O)NC4=O)cc3)cc2)cc1 | ATCC 62376 | - | - | 1.56 µg/mL |
| Clc1ccc(/C(Cn2ccnc2)=N/OCc2ccccc2)c(Cl)c1 | 5M | - | - | 64 µg/mL |
| CNc1ccc(C(=O)CC(O)CCC(C)C2OC(=O)CC(O)CC(=O)CC(O)CC(O)CC(O)CC(O)CC3(O)CC(O)C(C(=O)NCCN(C)C)C(CC(O[C@@H]4O[C@H](C)[C@@H](O)[C@H](NC(=O)CN(C)C)[C@@H]4O)/C=C/C=C/C=C/C=C\C=C/C=C/C=C/C2C)O3)cc1 | 73 | - | - | 0.06 µg/mL |
| O/N=C(\c1ccc(Cl)cc1)c1oc2ccccc2c1Cn1ccnc1 | NRRL Y-27077 | - | - | 25 µg/mL |
| COc1ccc(-c2nnc(SCC(O)(Cn3cncn3)c3ccc(F)cc3F)n2N)cc1 | IRFC 192 | broth dilution | - | >64 µg/mL |
| CCCCCOc1ccc(-c2ccc(-c3ccc(C(=O)N[C@H]4CCCNC(=O)[C@@H]5C[C@H](N)CN5C(=O)[C@H](CCCN)NC(=O)C(CCc5ccc(O)cc5)NC(=O)[C@@H]5C[C@@H](O)CN5C(=O)[C@H]([C@@H](C)O)NC4=O)cc3)cc2)cc1 | ATCC 62376 | - | - | 0.2 µg/mL |
| Nn1c(SCC(O)(Cn2cncn2)c2ccc(Cl)cc2Cl)nnc1-c1ccc(Cl)cc1 | IRFC 37 | broth dilution | - | >64 µg/mL |
| Cc1c(S(=O)(=O)c2ccccc2)[n+](=O)c2ccccc2n1[O-] | Clinical isolate 24 | - | - | 31.25 µg/mL |
| C[C@@H](n1cnc2ccc(Br)cc2c1=O)[C@](O)(Cn1cncn1)c1ccc(F)cc1F | 60 strains | - | - | 0.07 µg/mL |
| CNc1ccc(C(=O)CC(O)CCC(C)C2OC(=O)CC(O)CC(=O)CC(O)CC(O)CC(O)CC(O)CC3(O)CC(O)C(C(=O)NCCc4ccccn4)C(CC(O[C@@H]4O[C@H](C)[C@@H](O)[C@H](NC(=O)CCN5CCCCC5)[C@@H]4O)/C=C/C=C/C=C/C=C\C=C/C=C/C=C/C2C)O3)cc1 | 200 | - | - | >0.96 µg/mL |
| Cc1onc(-c2ccccc2Cl)c1C=O | - | - | - | >50 µg/mL |
| CCCSc1ccc2nc(NC(=O)OC)[nH]c2c1 | 92-343 | - | 24 h | 5 µg/mL |
| CCCCCC(=O)O[C@H]1[C@H](OC(=O)CCCCC)[C@H](OCC23C4C=C(C(C)C)C2(C(=O)O)C(C=O)(C4)[C@@H]2CC[C@@H](C)[C@H]23)O[C@H](C)[C@H]1OC | 2005 | - | - | 4 µg/mL |
| CCCCCOc1ccc(-c2ccc(-c3ccc(C(=O)N[C@H]4CCCNC(=O)[C@@H]5C[C@H](N=C(N)N)CN5C(=O)[C@H]([C@@H](C)O)NC(=O)[C@H](CCc5ccc(O)cc5)NC(=O)[C@@H]5C[C@@H](O)CN5C(=O)[C@H]([C@@H](C)O)NC4=O)cc3)cc2)cc1 | ATCC 38247 | - | - | 0.39 µg/mL |
| Cc1c(S(=O)(=O)c2ccccc2)[n+](=O)c2cc(Cl)ccc2n1[O-] | Clinical isolate 15 | - | - | 62.5 µg/mL |
| C[C@H]1[C@H](O)[C@@H](C)/C=C/C=C/C=C/C=C/C=C/C=C/C=C/[C@H](O[C@@H]2O[C@H](C)[C@@H](O)[C@H](N)[C@@H]2O)C[C@@H]2O[C@](O)(C[C@@H](O)C[C@@H](O)CC[C@H](O)[C@@H](O)C[C@@H](O)CC(=O)O[C@H]1C)C[C@H](O)[C@H]2C(=O)O | 2005E | - | - | 0.002 µg/mL |
| O=Cc1cc(-c2cccc(Br)c2)no1 | - | - | - | 50 µg/mL |
| CO[C@@H]1C[C@H](C[C@@H](C)[C@@H]2CC(=O)[C@H](C)/C=C(\C)[C@@H](O)[C@@H](OC)C(=O)[C@H](C)C[C@H](C)/C=C/C=C/C=C(\C)[C@H](N(O)C(=O)N(C)C)C[C@@H]3CC[C@@H](C)[C@@](O)(O3)C(=O)C(=O)N3CCCC[C@H]3C(=O)O2)CC[C@H]1C(=O)ON(C)O | 442 | - | - | 100 µg/mL |
| O=Cc1cc(-c2cccc(Cl)c2)no1 | - | - | - | 50 µg/mL |
| c1ccc(CO/N=C(/Cn2ccnc2)c2ccccc2)cc1 | 5M | - | - | >128 µg/mL |
| Cc1ccc(-c2noc(C)c2C=O)cc1 | - | - | - | 50 µg/mL |
| Nn1c(SCC(O)(Cn2cncn2)c2ccc(F)cc2F)nnc1-c1ccc(F)cc1 | IRFC 192 | broth dilution | - | >64 µg/mL |
| C[C@@H](n1cnc2cc(S(C)(=O)=O)ccc2c1=O)[C@](O)(Cn1cncn1)c1ccc(F)cc1F | 406 strains | - | - | 0.63 µg/mL |
| Fc1ccc(/C(Cn2ccnc2)=N/OCc2ccccc2)cc1 | CDCB385 | - | - | 16 µg/mL |
| Cc1ccc(-c2nnc(SCC(O)(Cn3cncn3)c3ccc(Cl)cc3Cl)n2N)cc1 | IRFC 192 | broth dilution | - | >64 µg/mL |
| CCOc1cc2c(cc1F)n([O-])c(C)c(S(=O)(=O)c1ccccc1)[n+]2=O | Clinical isolate 6 | - | - | 15.6 µg/mL |
| Cc1nc2cc(Cl)ccc2c(=O)n1[C@H](C)[C@](O)(Cn1cncn1)c1ccc(F)cc1F | 406 strains | - | - | 0.31 µg/mL |
| CC(=O)N1CCN(c2ccc(OC[C@H]3CO[C@](Cn4ccnc4)(c4ccc(Cl)cc4Cl)O3)cc2)CC1 | 2402E | - | - | 0.001 µg/mL |
| C[C@@H](n1cnc2c(Cl)cc(Cl)cc2c1=O)[C@](O)(Cn1cncn1)c1ccc(F)cc1F | 406 strains | - | - | ≤0.03 µg/mL |
| CO[C@@H]1C[C@H](C[C@@H](C)[C@@H]2CC(=O)[C@H](C)/C=C(\C)[C@@H](O)[C@@H](OC)C(=O)[C@H](C)C[C@H](C)/C=C/C=C/C=C(\C)[C@@H](N(OC)C(=O)N(C)C)C[C@@H]3CC[C@@H](C)[C@@](O)(O3)C(=O)C(=O)N3CCCC[C@H]3C(=O)O2)CC[C@H]1C(=O)ON(C)O | 38247 | - | - | 50 µg/mL |
| CCCCCOc1ccc(-c2ccc(-c3ccc(C(=O)N[C@H]4CCCNC(=O)[C@@H]5CCCN5C(=O)[C@H]([C@@H](C)O)NC(=O)[C@H](CCc5ccc(O)cc5)NC(=O)[C@@H]5C[C@@H](O)CN5C(=O)[C@H]([C@@H](C)O)NC4=O)cc3)cc2)cc1 | ATCC 62376 | - | - | 3.12 µg/mL |
| Clc1ccc(/C(Cn2ccnc2)=N\OCc2ccccc2)cc1 | 3M | - | - | 8 µg/mL |
| Nn1c(SCC(O)(Cn2cncn2)c2ccc(F)cc2F)nnc1-c1ccccc1 | ATCC 18804 | broth dilution | - | >64 µg/mL |
| CNc1ccc(C(=O)CC(O)CCC(C)C2OC(=O)CC(O)CC(=O)CC(O)CC(O)CC(O)CC(O)CC3(O)CC(O)C(C(=O)O)C(CC(O[C@@H]4O[C@H](C)[C@@H](O)[C@H](N)[C@@H]4O)/C=C/C=C/C=C/C=C\C=C/C=C/C=C/C2C)O3)cc1 | 73 | - | - | 0.03 µg/mL |
| Nn1c(SCC(O)(Cn2cncn2)c2ccc(Cl)cc2Cl)nnc1-c1ccc(O)cc1 | IRFC 36 | broth dilution | - | 64 µg/mL |
| CO[C@H]1C[C@@H]2CC[C@@H](C)[C@@](O)(O2)C(=O)C(=O)N2CCCC[C@H]2C(=O)O[C@H]([C@H](C)C[C@@H]2CC[C@@H](C(=O)ON3CCNCC3)[C@H](OC)C2)CC(=O)[C@H](C)/C=C(\C)[C@@H](O)[C@@H](OC)C(=O)[C@H](C)C[C@H](C)CCCC/C=C/1C | 442 | - | - | >100 µg/mL |
| Cc1c(/C(=N/O)c2ccccc2)oc2ccc(Cl)cc12 | NRRL Y-27077 | - | - | 5 µg/mL |
| CCCCCCCCOc1ccc(N2CCN(c3ccc(C(=O)N[C@H]4CCCNC(=O)[C@@H]5C[C@H](N=C(N)N)CN5C(=O)[C@H](CCN)NC(=O)[C@H](CCc5ccc(O)cc5)NC(=O)[C@@H]5CCCN5C(=O)[C@H]([C@@H](C)O)NC4=O)cc3)CC2)cc1 | ATCC 62376 | - | - | 0.2 µg/mL |
| C[C@@H](NC(=O)c1ccc(Cl)cc1N)[C@](O)(Cn1cncn1)c1ccc(F)cc1F | 406 strains | - | - | 0.07 µg/mL |
| Nn1c(SCC(O)(Cn2cncn2)c2ccc(Cl)cc2Cl)nnc1-c1ccncc1 | ATCC 18804 | broth dilution | - | >64 µg/mL |

3 of the rows above, restated:

| compound | strain or isolate | method | setting | value |
|---|---|---|---|---|
| c1ccc(CO/N=C(/Cn2ccnc2)c2ccccc2)cc1 | 5M | - | - | >128 µg/mL |
| CCCCCCCCOc1ccc(N2CCN(c3ccc(C(=O)N[C@H]4CCCNC(=O)[C@@H]5C[C@H](N=C(N)N)CN5C(=O)[C@H](CCN)NC(=O)[C@H](CCc5ccc(O)cc5)NC(=O)[C@@H]5CCCN5C(=O)[C@H]([C@@H](C)O)NC4=O)cc3)CC2)cc1 | ATCC 62376 | - | - | 0.2 µg/mL |
| C[C@@H](NC(=O)c1ccc(Cl)cc1N)[C@](O)(Cn1cncn1)c1ccc(F)cc1F | 406 strains | - | - | 0.07 µg/mL |

Lines come from different laboratories, so protocols vary.